Tested on: P. falciparum female gametocytes
Assay: P. falciparum female gametogenesis assay (Pf FGAA)
[1] = unified cytotox / Pf FGAA IC50, red: <10-fold selectivity, green: >10-fold
[2] = unified cytotox / IC50, <10-fold red, >10-fold green

Row | SMILES | Assay tox ratio Pf FGAA [1] | Assay tox ratio Pf FGAA [2]
1 | COc1ccc(NC(=O)c2cccc(Br)c2)cc1N1CCN(CCCCCCCN2CCN(c3cc(NC(=O)c4cccc(Br)c4)ccc3OC)CC2)CC1.Cl [TCMDC-139020] | 5.68 | –
2 | Oc1ccc2[nH]cc(C3CCN(CCCNCc4ccc(-c5ccccc5)cc4)CC3)c2c1 [TCMDC-139047] | 3.91 | –
3 | Cl.Nc1c2c(nc3ccc(NC(=O)CCCCCCc4ccccc4)cc13)CCCC2 [TCMDC-139056] | 2.28 | –
4 | COC(=O)c1ccc(-c2ccc(-c3cccnc3)cc2C)cc1 [TCMDC-139074] | 6.20 | –
5 | c1ccc(C23N=C(Nc4nc5ccccc5[nH]4)NC2(c2ccccc2)NC(Nc2nc4ccccc4[nH]2)=N3)cc1 (centres unmarked) [TCMDC-139082] | 411.98 | –
6 | COc1cccc(C23N=C(Nc4nc5ccccc5[nH]4)NC2(c2cccc(OC)c2)NC(Nc2nc4ccccc4[nH]2)=N3)c1 (centres unmarked) [TCMDC-139087] | 437.61 | –
7 | Clc1cccc(C23N=C(Nc4nc5ccccc5[nH]4)NC2(c2ccccc2)NC(Nc2nc4ccccc4[nH]2)=N3)c1 (centres unmarked) [TCMDC-139089] | 284.85 | –
8 | c1ccc(-c2nc(Nc3nc4ccccc4[nH]3)[nH]c2-c2ccccc2)cc1 [TCMDC-139099] | 18.85 | –
9 | Cc1cc2nc(N=C3NC4(c5ccccn5)NC(=Nc5nc6cc(C)c(C)cc6[nH]5)NC4(c4ccccn4)N3)[nH]c2cc1C.O=C(O)C(F)(F)F (centres unmarked) [TCMDC-139105] | 6.73 | –
10 | CN1CCN(c2cc3c(cc2Cl)CCN3C(=O)Nc2ccc(NC(=O)c3ccc(C(F)(F)F)cc3)cc2)CC1.Cl [TCMDC-139270] | 5.75 | –
11 | CC(NCCc1cccc(Cl)c1)C(O)c1ccc(OCCCCCCOc2ccc(C(O)C(C)NCCc3cccc(Cl)c3)cc2)cc1 (centres unmarked) [TCMDC-139334] | 2.63 | –
12 | Cc1cc(N)c2cc(NC(=O)/C=C/c3ccc([N+](=O)[O-])cc3)ccc2n1 [TCMDC-139335] | 2.00 | –
13 | Cc1cc(N)c2cc(NC(=O)c3cc(C(F)(F)F)cc(C(F)(F)F)c3)ccc2n1.Cl [TCMDC-139377] | 3.01 | –
14 | O=C(Nc1cc(Cl)c(Cl)cc1NC(=O)c1cccc(-c2ccccc2)c1O)c1cccc(-c2ccccc2)c1O [TCMDC-139548] | 2.84 | –
15 | COc1ccc2nc(N=C3NC4(c5ccccc5)NC(=Nc5nc6ccc(OC)cc6[nH]5)NC4(c4ccccc4)N3)[nH]c2c1.O=C(O)C(F)(F)F (centres unmarked) [TCMDC-139632] | 529.58 | –
16 | CC(Cc1ccc(NS(=O)(=O)c2ccc(CC(C)NCCc3cccc(Cl)c3)cc2)cc1)NCCc1cccc(Cl)c1 (centres unmarked) [TCMDC-139797] | 2.37 | –
17 | CC(Cc1ccc(NC(=O)c2ccc(CC(C)NCc3ccc(Cl)cc3)cc2)cc1)NCCc1cccc(Cl)c1 (centres unmarked) [TCMDC-139810] | 4.67 | –
18 | CC(Cc1ccc(NC(=O)c2ccc(CNCCCCc3ccccc3)cc2)cc1)NCCc1cccc(Cl)c1.Cl (centres unmarked) [TCMDC-139866] | 1.76 | –
19 | CC(Cc1ccc(NC(=O)c2ccc(CNCCc3ccccc3)cc2)cc1)NCCc1cccc(Cl)c1.Cl (centres unmarked) [TCMDC-139867] | 2.02 | –
20 | CCCCCCCN1CC[C@@H](CCCc2ccnc3ccc(OC)cc23)[C@@H](CNC)C1.O=C(O)C(=O)O [TCMDC-139875] | 8.04 | –
21 | CN(C)CCCNCc1ccc(-c2ccc(C(F)(F)F)cc2)cc1 [TCMDC-140011] | 2.92 | –
22 | COc1cccc(CCNC(C)Cc2ccc(OCCCCOc3ccccc3)cc2)c1 (centres unmarked) [TCMDC-140020] | 0.97 | –

Row | SMILES | Assay tox ratio Pf FGAA [1] | Assay tox ratio Pf FGAA [2]
23 | Nc1ccc2[nH]cc(C3CCN(CC4CCN(C(=O)/C=C/c5ccc(Cl)c(Cl)c5)CC4)CC3)c2n1 [TCMDC-140061] | 3.33 | –
24 | Nc1ccc2[nH]cc(C3CCN(CCC4CCN(C(=O)/C=C/c5ccc(Cl)c(Cl)c5)CC4)CC3)c2n1 [TCMDC-140062] | 6.29 | –
25 | Nc1ccc2[nH]cc(C3CCN(CC4CCC(NC(=O)/C=C/c5ccc(Cl)c(Cl)c5)CC4)CC3)c2n1 (centres unmarked) [TCMDC-140064] | 18.13 | –
26 | O=C(/C=C/c1ccc(Cl)c(Cl)c1)N1CCC(CN2CCC(c3c[nH]c4ccncc34)CC2)CC1 [TCMDC-140074] | 6.11 | –
27 | CC(=O)Nc1ccc2[nH]cc(C3CCN(CC4CCN(C(=O)/C=C/c5ccc(Cl)c(Cl)c5)CC4)CC3)c2n1 [TCMDC-140112] | 9.15 | –
28 | CC(=O)Nc1ccc2[nH]cc(C3CCN(CC4CCC(NC(=O)/C=C/c5ccc(Cl)c(Cl)c5)CC4)CC3)c2n1 (centres unmarked) [TCMDC-140114] | 7.76 | –
29 | Nc1cc2c(C3CCN(CC4CCN(C(=O)/C=C/c5ccc(Cl)c(Cl)c5)CC4)CC3)c[nH]c2cn1 [TCMDC-140133] | 3.16 | –
30 | COc1ccc(-c2ccccc2)cc1NC(=S)NC1CCC(CN2CCC(c3c[nH]c4ccccc34)CC2)CC1 (centres unmarked) [TCMDC-140182] | 3.33 | –
31 | CCN(CC)CCN(Cc1ccc(-c2ccc(Cl)cc2)cc1)C(=O)Cn1cc(CN(C)C)c(=O)nc1SCc1ccc(F)cc1 [TCMDC-140406] | 4.77 | –
32 | CN1CCN(CCCNCc2ccccc2-c2cccc(CNCc3ccc4c(c3)OCO4)c2)CC1.O=C(O)C(F)(F)F [TCMDC-140476] | 0.92 | –
33 | CC(C)(C)CNCC(C)(C)c1nc(-c2ccc(Cl)c(O)c2)c(-c2ccncc2)[nH]1.Cl [TCMDC-140549] | – | 11.71
34 | CC(C)(CN)c1nc(-c2ccc(Br)c(O)c2)c(-c2ccncc2)[nH]1.Cl [TCMDC-140680] | – | 55.36
35 | N=C(N)Nc1nc(-c2ccc(NCc3ccc(CNc4cccc(-c5csc(NC(=N)N)n5)c4)cc3)cc2)cs1 [TCMDC-140699] | 5.34 | –
36 | CN1CCC=C(C(=O)NCC(C)(C)c2nc(-c3ccc(Cl)c(O)c3)c(-c3ccncc3)[nH]2)C1.Cl [TCMDC-140700] | 6.98 | –
37 | CCN(CC)CCN(Cc1ccc(-c2ccc(C(F)(F)F)cc2)cc1)C(=O)Cn1cc(Cc2cnn(C)c2)c(=O)nc1/C=C/c1ccc(F)cc1.O=C(O)C(O)C(O)C(=O)O [TCMDC-140741] | 11.45 | –
38 | CN(C)CCOc1ccc(NC(=O)NC(C)(C)c2nc(-c3ccc(Cl)c(O)c3)c(-c3ccncc3)[nH]2)cc1.Cl [TCMDC-140744] | 19.59 | –
39 | CNCC(C)(C)c1nc(-c2ccc(Cl)c(O)c2)c(-c2ccncc2)[nH]1.Cl [TCMDC-140762] | 15.32 | –
40 | CC(C)(C)c1ccc(CNC(=O)/C=C/c2ccc(CNC3CCNCC3)cc2)cc1 [TCMDC-140773] | 4.94 | –
41 | CC(C)(C)c1ccc(CNC(=O)c2cc(CNC3CCNCC3)ccc2O)cc1 [TCMDC-140775] | 6.99 | –
42 | CC(C)(C)c1ccc(CNC(=O)c2ccc(CNC3CCC(N)CC3)s2)cc1 (centres unmarked) [TCMDC-140777] | 3.67 | –
43 | CC(C)(CNC(=O)[C@H]1CCCN1)c1nc(-c2ccc(Cl)c(O)c2)c(-c2ccncc2)[nH]1.Cl [TCMDC-141060] | 27.10 | –
44 | CC(C)(CNC(=O)[C@H]1CCCCN1)c1nc(-c2ccc(Cl)c(O)c2)c(-c2ccncc2)[nH]1.Cl [TCMDC-141070] | – | 84.96

Row | SMILES | Assay tox ratio Pf FGAA [1] | Assay tox ratio Pf FGAA [2]
45 | CC(C)(CNC(=O)[C@@H]1CCCCN1)c1nc(-c2ccc(Cl)c(O)c2)c(-c2ccncc2)[nH]1.Cl [TCMDC-141079] | 24.69 | –
46 | Cl.NCC1(c2nc(-c3ccc(Cl)c(O)c3)c(-c3ccncc3)[nH]2)CCCCC1 [TCMDC-141154] | – | 138.05
47 | CC1(CCN2CCC(c3c[nH]c4cnccc34)CC2)CCCc2c(Br)cccc2C1=O.Cl (centres unmarked) [TCMDC-141171] | 3.03 | –
48 | CC(C)(CN)c1cc(-c2ccc(Cl)c(O)c2)c(-c2ccncc2)o1.Cl [TCMDC-141334] | – | 36.75
49 | CN1CCN(c2ccc(Nc3ncc([N+](=O)[O-])c(Nc4ccccc4O)n3)cc2)CC1.O=C(O)C(F)(F)F [TCMDC-141372] | 0.91 | –
50 | O=C(CCC1CCCC1)N(Cc1ccc(-c2ccc(CNCCc3ccccc3)cc2)cc1)C1CCCNC1.O=C(O)C(F)(F)F (centres unmarked) [TCMDC-141444] | 2.62 | –
51 | O=C(Nc1ccc(Cl)cc1)c1cc(Cl)cc2nc(C(F)(F)F)[nH]c12 [TCMDC-141586] | – | 1.43
52 | CN1CCCC1CCNc1ncc2c(-c3ccc(NC(=O)Nc4cc(C(F)(F)F)ccc4F)c(F)c3)nn(C)c2n1.O=C(O)C(F)(F)F (centres unmarked) [TCMDC-141610] | 3.14 | –
53 | CN1CCN(CCCNc2ncc3c(-c4ccc(NC(=O)Nc5cc(C(F)(F)F)ccc5F)c(F)c4)nn(C)c3n2)CC1.O=C(O)C(F)(F)F [TCMDC-141611] | 5.61 | –
54 | Cc1ccc(Cn2nc(Cl)c(N3CCCNCC3)cc2=O)cc1NC(=O)Nc1ccc(-c2ccccc2)cc1.O=C(O)C(F)(F)F [TCMDC-141697] | 7.30 | –
55 | Cc1ccc(Cn2nc(Cl)c(N3CCNCC3)cc2=O)cc1NC(=O)Nc1ccc(-c2ccccc2)cc1.O=C(O)C(F)(F)F [TCMDC-141698] | 10.79 | –
56 | Cc1c(Cn2nc(Cl)c(N3CCNCC3)cc2=O)cccc1NC(=O)Nc1ccc(-c2ccccc2)cc1.O=C(O)C(F)(F)F [TCMDC-141699] | 0.86 | –
57 | Cl.O=S(=O)(Nc1cc2c(cc1OCCCN1CCCCC1)CCNCC2)c1ccc(-c2ccc(Cl)cc2)cc1 [TCMDC-141753] | 2.18 | –
58 | CN1CCc2cc(NS(=O)(=O)c3ccc(-c4ccc(Cl)cc4)cc3)c(OCCCN3CCCCC3)cc2CC1.Cl [TCMDC-141754] | 2.30 | –
59 | Cc1cc(F)ccc1-c1nc(NCCCNCCc2ccccc2)nc2c1ccc(=O)n2-c1c(F)cccc1F.O=C(O)C(F)(F)F [TCMDC-141804] | – | 3.33
60 | Cc1ccc(Cn2ncc(N3CCCNCC3)c(Cl)c2=O)cc1NC(=O)Nc1ccc(-c2ccccc2)cc1 [TCMDC-141924] | 4.53 | –
61 | Nc1nc(N)c2cc(NC(=O)c3ccc(Cl)c(Cl)c3)ccc2n1 [TCMDC-141982] | 1.35 | –
62 | Cl.OC(CNCCCCCCNCC(O)c1ccc(Cl)c(Cl)c1)c1ccc(Cl)c(Cl)c1 (centres unmarked) [TCMDC-141987] | 4.74 | –
63 | Cl.N=C1C=C(N)C(=O)c2ccccc21 [TCMDC-141992] | 0.0437 | –
64 | CCn1c2ccccc2c2cc(C=NN=c3cc(C)[nH]c4ccccc34)ccc21 [TCMDC-142186] | 1.40 | –
65 | CCOc1ccc2c(=NN=Cc3cc(OC)c(OC)cc3OC)cc(C)[nH]c2c1 [TCMDC-142207] | 9.97 | –

Reference: paper PMC6753678, “Fueling Open Innovation for Malaria Transmission-Blocking Drugs: Hundreds of Molecules Targeting Early Parasite Mosquito Stages” (Frontiers in Microbiology, 2019)
